Results of unrelated studies side by side (data: NIAID ChemDB).

All rows: host cell toxicity; cells: VERO; measure: CC50

Neighbouring rows are from separate reports. Blank or dashed fields: not listed here. Two numbers with a dash give a range or band. CCn is the concentration with n% toxicity to the cells.

compound	read by	value
O=C1NC(NNC(=O)c2ccncc2)=N/C1=C\c1ccccc1Cl	-	48.56 µg/mL
c1ccc(-c2cc3ccccn3c2)nc1	MTT	214 µM
CCOC(=O)C1=C(C)NC(C)=C(C(=O)OCC)C1c1cn(-c2ccccc2)nc1-c1ccc(Br)cc1	MTT	>10 µg/mL
Cc1c(N2CCN(C(=O)C3COc4ccccc4O3)CC2)c([N+](=O)[O-])cc2c(=O)c(C(=O)O)cn(C3CC3)c12	-	117 µM
Brc1ccc(-c2cc3ccccn3c2)cc1	MTT	>500 µM
Nc1nc2c(ncn2COC(CO)CO)c(=O)[nH]1	-	900 µM
CCN(CC)C(=O)C1CCCN(c2nc3c(cc2[N+](=O)[O-])c(=O)c(C(=O)O)c2sc4ccccc4n23)C1	-	119 µM
Cc1c(CN2CCSCC2)cc(-c2ccccc2)n1-c1ccccc1	-	32 µg/mL
C[C@](N)(Cc1ccc(-c2ccccc2)cc1)C(=O)O	MTT	>400 µM
COc1cc2ccnc3c2c(c1OC)N(CCC(C)C)C=C3	-	17.6 µM
O=C(O)c1c(=O)c2cc([N+](=O)[O-])c(N3CCC4(CC3)OCCO4)nc2n2c1sc1ccccc12	-	>130 µM
Cc1ccc2nc(C)c(C(=O)NCc3ccc(N4CCC(c5ccc(OC(F)(F)F)cc5)CC4)cc3)n2c1	-	>32 µM
COc1ccc(CNC(=O)c2c(C)n([O-])c3cc(F)c(F)cc3[n+]2=O)cc1	-	>16.6 µg/mL
O=c1[nH]c(=O)n([C@H]2C[C@H](O)[C@@H](CO)O2)cc1I	-	<0.5 µg/mL
Cc1ccn2c(C(=O)NCc3ccc(Oc4cccc(C(F)(F)F)c4)cc3)c(C)nc2c1	-	>32 µM
Cc1c(CN2CCSCC2)cc(-c2ccccc2F)n1-c1ccccc1F	-	32 µg/mL
Clc1ccc(-c2cc3ccccn3c2)cc1Cl	MTT	391 µM
COC(=O)[C@H](C)NP(=O)(OCCOCn1cnc2c(=O)[nH]c(N)nc21)Oc1ccccc1	-	>500 µM
Cc1cccc(-n2c(-c3ccc(F)cc3)cc(CN3CCN(C)CC3)c2C)c1	-	16 µg/mL
Cc1cn2c(C(=O)NCc3ccc(N4CCSCC4)c(F)c3)c(C)nc2s1	-	>32 µM
CCOC(=O)Nc1cc(N[C@@H](C)[C@H](O)c2ccccc2)c(N)c(N)n1	-	>200 µg/mL
c1ccc(-c2cc3ccccn3c2)cc1	MTT	100–500 µM
Nc1nc2c(ncn2C[C@H]2C[C@H]2[C@H](O)CO)c(=O)[nH]1	-	>100 µM
O=c1[nH]c(=O)n([C@H]2C[C@H](O)[C@@H](COP3(=O)OCc4cccc(-c5ccccc5)c4O3)O2)cc1/C=C/Br	-	32.9 µg/mL
Cc1ccn2c(C(=O)NCc3ccc(N(C)C)cc3)c(C)nc2c1	-	>32 µM
O=C(O)CP(=O)(O)O	-	172 µg/mL
CCc1nc2ccc(Cl)cn2c1C(=O)NCc1ccc(S(F)(F)(F)(F)F)cc1	-	>32 µM
CCCCCCCCCCCCCCCC[n+]1ccc2cc(OC)c(OC)c3c2c1C=CN3	-	2.2 µM
O=C1NC(NNC(=O)c2ccncc2)=N/C1=C\c1cccc(Cl)c1	-	>62.5 µg/mL
CC[C@H]1OC(=O)[C@H](C)C(=O)[C@H](C)[C@@H](O[C@@H]2O[C@H](C)C[C@H](N(C)C)[C@H]2O)[C@@](C)(C/C=C/c2cnc3ccccc3c2)C[C@@H](C)C(=O)[C@H](C)[C@H]2NC(=O)O[C@@]21C	-	>102.4 µM
O=[N+]([O-])c1nccn1CCCCNc1ccnc2cc(Cl)ccc12	-	>640 µg/mL
CCOC(=O)C1=C(C)NC(C)=C(C(=O)OCC)C1c1cn(-c2ccccc2)nc1-c1ccc([N+](=O)[O-])cc1	MTT	8.83 µg/mL
Cc1ccc(-n2c(-c3ccc(F)cc3)cc(CN3CCSCC3)c2C)cc1	-	32 µg/mL
CCc1nc2ccccc2n1CCCCNc1ccc(OC)cc1	luminescence	>100 µM
CCOC(=O)c1cc(C#N)c2[nH]c3ccccc3n2c1=O	-	150 µg/mL
CCCCCCCCCCCN1C=Cc2cc(OC)c(O)c3c2c1cc[n+]3CCCCCCCCCCC	-	9.1 µM
Cc1c(N2CCN(C(=O)c3ccco3)CC2)c([N+](=O)[O-])cc2c(=O)c(C(=O)O)cn(C3CC3)c12	-	134 µM
Cc1cn([C@H]2C[C@H](O)[C@]3(CO)C[C@H]23)c(=O)[nH]c1=O	-	>100 µM
CC(=O)O[C@@H]1C[C@H](O)C23COC(O)[C@]1(C)C2C[C@@H](O)C1(C)C3C(=O)[C@H](OC(C)=O)[C@@]2(C)[C@H](c3ccoc3)CC3OC312	-	400 µg/mL
O=C1NC(NNC(=O)c2ccncc2)=N/C1=C\c1ccc(Cl)cc1	-	34.51 µg/mL
CC[C@H]1OC(=O)[C@H](C)C(=O)[C@H](C)[C@@H](O[C@@H]2O[C@H](C)C[C@H](N(C)C)[C@H]2O)[C@](C)(OC)C[C@@H](C)C(=O)[C@H](C)[C@H]2N(CC/C=C/c3ccccc3)C(=O)O[C@]12C	-	>104.8 µM
Cc1cn2c(C(=O)NCc3ccc(N4CCC(c5ccc(OC(F)(F)F)cc5)CC4)cc3)c(C)nc2s1	-	>32 µM
Cc1c(CN2CCN(C)CC2)cc(-c2ccccc2)n1-c1ccccc1Cl	-	4 µg/mL
N#Cc1ccn2cc(-c3ccccc3)cc2c1	MTT	253 µM
CC1(C)COCN1c1nc2c(cc1[N+](=O)[O-])c(=O)c(C(=O)O)c1sc3ccccc3n12	-	>142 µM
Cc1ccn2c(C(=O)NCc3ccc(N4CCC(N)CC4)c(F)c3)c(C)nc2c1	-	>32 µM
Clc1cccn2cc(-c3ccccc3)cc12	MTT	>500 µM
Cc1c(CN2CCSCC2)cc(-c2ccc(Cl)cc2)n1-c1ccc(F)cc1	-	8 µg/mL
Cc1nc2ccc(Cl)cn2c1C(=O)NCc1ccc(N2CCC(c3ccc(OC(F)(F)F)cc3)CC2)cc1	-	>32 µM
Cc1cn(C[C@H]2C[C@H]2[C@H](O)CO)c(=O)[nH]c1=O	-	>100 µM
c1ccn2cc(-c3ccoc3)cc2c1	MTT	>500 µM
Cn1cc(C(=O)NCc2ccc(Cl)cc2)c(=O)c2cc(CN3CCOCC3)ccc21	-	>100 µM
COc1cc2cc[n+](CCC(C)C)c3c2c(c1OC)NC=C3	-	17.2 µM
COc1ccc(CC2C3=C(CCCC3)CCN2c2c([N+](=O)[O-])cc3c(=O)c(C(=O)O)cn(C4CC4)c3c2C)cc1	-	118 µM
CC[C@H]1OC(=O)[C@H](C)C(=O)[C@H](C)[C@@H](O[C@@H]2O[C@H](C)C[C@H](N(C)C)[C@H]2O)[C@](C)(OC)C[C@@H](C)C(=O)[C@H](C)[C@H]2N(NCCCCCCc3ccnc4ccccc34)C(=O)O[C@]12C	-	7.32 µM
Cc1c(CN2CCN(C)CC2)cc(-c2ccccc2Cl)n1-c1ccccc1	-	4 µg/mL
Cc1c(N2C[C@@H](C)O[C@@H](C)C2)c([N+](=O)[O-])cc2c(=O)c(C(=O)O)cn(C3CC3)c12	-	155.7 µM
O=[N+]([O-])c1cccc(-c2cc3ccccn3c2)c1	MTT	100–200 µM
CCCCCCCN1C=Cc2nccc3cc(OC)c(OC)c1c23	-	3.7 µM
O=c1[nH]cnc2c1ncn2C[C@H]1C[C@H]1[C@H](O)CO	-	>100 µM
CC[C@H]1OC(=O)[C@H](C)C(=O)[C@H](C)[C@@H](O[C@@H]2O[C@H](C)C[C@H](N(C)C)[C@H]2O)[C@](C)(OC)C[C@@H](C)C(=O)[C@H](C)[C@H]2N(C/C=C/Cc3ccccc3)C(=O)O[C@]12C	-	8.19 µM

Repeating the final 5 entries:

compound | read by | value
Cc1c(N2C[C@@H](C)O[C@@H](C)C2)c([N+](=O)[O-])cc2c(=O)c(C(=O)O)cn(C3CC3)c12 | - | 155.7 µM
O=[N+]([O-])c1cccc(-c2cc3ccccn3c2)c1 | MTT | 100–200 µM
CCCCCCCN1C=Cc2nccc3cc(OC)c(OC)c1c23 | - | 3.7 µM
O=c1[nH]cnc2c1ncn2C[C@H]1C[C@H]1[C@H](O)CO | - | >100 µM
CC[C@H]1OC(=O)[C@H](C)C(=O)[C@H](C)[C@@H](O[C@@H]2O[C@H](C)C[C@H](N(C)C)[C@H]2O)[C@](C)(OC)C[C@@H](C)C(=O)[C@H](C)[C@H]2N(C/C=C/Cc3ccccc3)C(=O)O[C@]12C | - | 8.19 µM